Results of unrelated studies side by side (data: NIAID ChemDB).

Shared fields: tests on isolated targets

Blank or dashed fields: not listed here. Lines come from different laboratories, so protocols vary. Inhibition is in % at the dose shown (toxicity tests: loss of growth or viability). ICn is the concentration giving n% inhibition.

structure,protein,endpoint,read by,dose,strain or isolate,species,result
O=C1N=C2C(C(=O)N=C3SC([N+](=O)[O-])=CN32)C(c2ccccc2[N+](=O)[O-])N1,CysK1,inhibition,absorbance,100 µM,,Mycobacterium tuberculosis,7%
[N-]=[N+]=N[C@H]1C[C@H](n2cc(Br)c(=O)[nH]c2=O)O[C@@H]1CO,Thymidine monophosphate kinase,Ki,,,,Mycobacterium tuberculosis,5 µM
O=C(CCN1C(=O)/C(=C/c2ccc([N+](=O)[O-])cc2)SC1=S)NNC(=O)c1ccncc1,Pantothenate synthetase,IC50,absorbance,,,Mycobacterium tuberculosis,0.59 µM
Cc1cn([C@@H]2O[C@H](COP(=O)([O-])[O-])[C@@H](O)[C@H]2F)c(=O)[nH]c1=O,Thymidine monophosphate kinase,Ki,,,,Mycobacterium tuberculosis,28.05 µM
O=C1N=C2SC([N+](=O)[O-])=CN2C2=NC(=S)NC(c3ccccc3[N+](=O)[O-])C12,CysK1,inhibition,absorbance,100 µM,,Mycobacterium tuberculosis,88.7%
CCOc1ccc2cc(-n3nncc3COc3nc(-c4ccccn4)sc3C(=O)OC)c(=O)oc2c1,DNA gyrase,IC50,gel / absorbance,,,Mycobacterium tuberculosis,5.5 µM
O=C1N=C2SC([N+](=O)[O-])=CN2C2=NC(=S)NC(c3c(Cl)cccc3Cl)C12,CysK1,inhibition,absorbance,100 µM,,Mycobacterium tuberculosis,0%
CC(C)C1(C)N=C(c2ncccc2C(=O)O)NC1=O,Acetohydroxyacid synthase,Ki,,,,Mycobacterium avium,>2000 µM
Cc1ccccc1C1NC(=O)N=C2C1C(=O)N=C1SC([N+](=O)[O-])=CN12,CysK1,inhibition,absorbance,100 µM,,Mycobacterium tuberculosis,0%
COC(=O)c1ccccc1CS(=O)(=O)NC(=O)Nc1nc(OC)cc(OC)n1,Acetohydroxyacid synthase,Ki,,,,Mycobacterium avium,>800 µM
O=c1[nH]c(=O)n([C@H]2C[C@H](O)[C@@H](CO)O2)cc1I,Thymidine monophosphate kinase,Ki,,,,Mycobacterium tuberculosis,33.04 µM
Nc1ccc2cc(-n3nncc3COc3nc(-c4ccccn4)sc3C(=O)O)c(=O)oc2c1,DNA gyrase,IC50,gel / absorbance,,,Mycobacterium tuberculosis,0.8 µM
COc1ccc(C2NC(=S)N=C3C2C(=O)N=C2SC([N+](=O)[O-])=CN23)cc1,CysK1,inhibition,absorbance,100 µM,,Mycobacterium tuberculosis,90.9%
Cc1cn([C@H]2C[C@H](N=[N+]=[N-])[C@@H](COP(=O)([O-])[O-])O2)c(=O)[nH]c1=O,Thymidine monophosphate kinase,Ki,,,,Mycobacterium tuberculosis,28.05 µM
C[C@@H]1CN(c2c(F)c(N)c3c(=O)c(C(=O)O)cn(C4CC4)c3c2F)C[C@H](C)N1,Gyrase,IC50,,,,Mycobacterium tuberculosis,4.8 µg/mL
Nc1ccc2cc(-n3nncc3COc3nc(-c4ccncc4)sc3C(=O)O)c(=O)oc2c1,DNA gyrase,IC50,gel / absorbance,,,Mycobacterium tuberculosis,1.56 µM
O=C(O)Cc1ccc(O)c(Cl)c1,Rv1284,Ki,,,Rv1284,Mycobacterium tuberculosis,10.8 µM
O=C1N=C2SC([N+](=O)[O-])=CN2C2=NC(=S)NC(c3ccc(Br)cc3)C12,CysK1,inhibition,absorbance,100 µM,,Mycobacterium tuberculosis,34.4%
O=C(CCN1C(=O)/C(=C/c2ccc3c(c2)OCO3)SC1=S)NNC(=O)c1cccnc1,Pantothenate synthetase,IC50,absorbance,,,Mycobacterium tuberculosis,1.12 µM
O=C(N[C@H]1[C@@H](OC2C[C@H](CO)[C@@H](O)[C@@H](O)[C@H]2O)O[C@H](CO)[C@@H](O)[C@@H]1O)c1ccc(Sc2ccc(Cl)cc2)nc1,MYCOTHIOL-S-CONJUGATE AMIDASE,inhibition,,50 µM,,Mycobacterium tuberculosis,10%
O=C(O)c1sc(-c2ccccn2)nc1OCc1cnnn1-c1cc2ccc(O)cc2oc1=O,DNA gyrase,IC50,gel / absorbance,,,Mycobacterium tuberculosis,15.8 µM
COc1cc(/C=C2\SC(=S)N(CCC(=O)NNC(=O)c3cccnc3)C2=O)cc(OC)c1OC,Pantothenate synthetase,IC50,absorbance,,,Mycobacterium tuberculosis,2.12 µM
CCOc1ccc2cc(-n3nncc3COc3nc(-c4ccccn4)sc3C=O)c(=O)oc2c1,DNA gyrase,IC50,gel / absorbance,,,Mycobacterium tuberculosis,10.2 µM
CN(C)c1ccc(C2NC(=S)N=C3C2C(=O)N=C2SC([N+](=O)[O-])=CN23)cc1,CysK1,inhibition,absorbance,100 µM,,Mycobacterium tuberculosis,0%
CC[C@@H](CO)NCCN[C@@H](CC)CO,Pantothenate synthetase,IC50,absorbance,,,Mycobacterium tuberculosis,>25 µM
CCc1cnc(C2=NC(C)(C(C)C)C(=O)N2)c(C(=O)O)c1,Acetohydroxyacid synthase,Ki,,,,Mycobacterium avium,>1000 µM
COC(=O)c1sc(-c2cccnc2)nc1OCc1cnnn1-c1cc2ccc(O)cc2oc1=O,DNA gyrase,IC50,gel / absorbance,,,Mycobacterium tuberculosis,12.4 µM
O=C1N=C2C(C(=O)N=C3SC([N+](=O)[O-])=CN32)C(c2ccc(Br)cc2)N1,CysK1,inhibition,absorbance,100 µM,,Mycobacterium tuberculosis,10.9%

Repeating the final 3 entries:

structure,protein,endpoint,read by,dose,strain or isolate,species,result
CCc1cnc(C2=NC(C)(C(C)C)C(=O)N2)c(C(=O)O)c1,Acetohydroxyacid synthase,Ki,,,,Mycobacterium avium,>1000 µM
COC(=O)c1sc(-c2cccnc2)nc1OCc1cnnn1-c1cc2ccc(O)cc2oc1=O,DNA gyrase,IC50,gel / absorbance,,,Mycobacterium tuberculosis,12.4 µM
O=C1N=C2C(C(=O)N=C3SC([N+](=O)[O-])=CN32)C(c2ccc(Br)cc2)N1,CysK1,inhibition,absorbance,100 µM,,Mycobacterium tuberculosis,10.9%